Results from the supplement of paper PMC9931576.
Residue numbers refer to the chain shown, from its start. Human monoclonal antibodies against the spike receptor-binding domain (heavy:light variable regions). IC50 against pseudoviruses bearing the spike of naturally observed variants; lower = stronger; >10 µg/ml means not reached at the top dose. No active / inactive call. The stated detection limit is 0.0005 µg/ml; values near or below 0.001 µg/ml lie at the floor of the assay.

B1: DH1160 (protein)
chain 1: QVQLVQSGGEVKKPGALLRVSCKASGDTSTNHAISWVRQAPGQGLEWMAWINVYNGRTNYAPHLQGRVTLTTDTATSTAYMQLSSLRSDDTAVYYCARWIHRDFDWLPYGMFMDVWGQGTTVTVSS
chain 2: QSALTQPPSASGSPGQSVTISCTGTSIDLGVYKYVSWYQHHPGKAPKLIIYEVSKRPSGVPDRFSGSKSGNTASLTVSGLQAEDEADYYCTSYEGDNTLVFGGGTKLTVL
B2: BD56-203 (protein)
chain 1: QVQLVQSGGEVKKPGASVRVSCKASGYTFSGYGISWVRQAPGQGLEWMGWISAQNGNTNYAQKLQGRVTMTTDTSTNTAYMELRSLKSDDTAVYFCARVLDSGFLWFEDSYFFDHWGQGTRVTVSS
chain 2: EIVLTQSPGTLSLSPGERATLSCRASQSISSSYLAWFQQKPGQAPRLLIYGAFSRATGVPDRFSGSGSGTDFTLTISRLEPGDFAVYYCQQYGSSPWTFGQGTKVEIK
B3: BD56-229 (protein)
chain 1: EVQLVESGGGLVQPGGSLRLSCAASEITVSSNYMNWVRQAPGKGLEWVSVIYSGGSTFYADSVKGRFTISRDNSKNTLYLQMNSLRAEDTAVYYCARDLIVYGMDVWGQGTTVTVSS
chain 2: IQLTQSPSSLSASVGDRVTITCRASQGISSHLAWYQQKPGRAPKLLIYGASTLQSGVPSRFSGSGSGTDFTLTISSLQPEDFATYYCQQLDSYPLFGQGTKLEIK
B4: BD56-300 (protein)
chain 1: B3 chain 1 with V12I, E26G, I27F, V50L, S56T, F58Y, L99Q, I100A, Y102F
chain 2: SYVLTQPPSVSVAPGKTARITCGGNNIGSNSVHWYQQKPGQAPVLVVYDDSDRPSGIPERFSGSNSGNTATLTISRVEAGDEADYYCQVWDSSSDQPVVFGGGTKLTVL
B5: BD56-217 (protein)
chain 1: QLRLQESGPGLVKPSETLSLTCSVSGGSISSSGDYWGWTRQPPGKGLEWIGIVYSGSTNYNPSLKRRVTMSVDTSKNHFSLKLRSVTAADTAVYFCARTAWFGELDDSWGQGTLVTVSS
chain 2: QSVLTQPPSTSGTPGQRVTISCSGSNSNIGGNYVYWYQQLPGTAPKLLIYGNNRRPSGVPDRISGSKSGTSASLAISGLRSEDEADYYCAAWDDSLSGPVFGGGTTLTVL
B6: BD56-322 (protein)
chain 1: QVQLVESGGGVVQPGRSLRLSCAASGFTFSSYAMHWVRQAPGKGLEWVAVISYDGSYKYYVDSVKGRFTISRDNSKNTLYLQMNSLRAEDTAVYYCARGGGYNSPITIVRGVIVFDGFDIWGQGTMVTVSS
chain 2: AIQLTQSPSSLSASVGDRVTITCRASQGISSALAWYQQKPGKAPKLLIYDASSLESGVPSRFSGSGSGTDFTLTISSLQPEDFATYYCQQLNNYPLTFGGGTKVEIK
B7: BD56-260 (protein)
chain 1: QMQLVQSGAEVKKPGASVRVSCKASGYTFSNNYIHWVRQAPGQGLEWVGIINPSGGSTSYAQKFEGRVTMTGDTSTSTVYMDLRSLRSEDTAVYYCARDPSFIPASSYYFDYWGQGTLVTVSS
chain 2: EIVMTQSPATLSVSPGERATLSCRASQSVSSNLAWYQQKPGQAPRLLIYGASTRATGIPGRFSGSGSGTEFTLTISSLQSEDFAVYYCQQYNKWPPPLTFGGGTKVEIK
B8: BD56-219 (protein)
chain 1: QVQLVESGGGVVQPGRSLRLSCAASGFTFNTYAMHWVRQAPGKGLEWVAVISYDGSNKYYADSAKGRFTISRDNSKNTLFLQMNSLRAEDTALFYCARDSETLAAALANSGLDSWGQGTLVTVSS
chain 2: SYVLTQPPSVSVAPGKTARITCGGISIGSKNVHWYQQKPGQAPVLVIYYDTDRPSGIPERFSGSNSGNTATLTISRVDAGDEADYYCQVWDTGVVFGGGTKLTVL
B9: BD56-261 (protein)
chain 1: QVQLVQSGAALRKPGASVKVSCKTSGYRFTRYGITWVRQAPGQGLEWMGWISPYNGNTIYAQKLQGRVTMTTDTSTSTAYMELRSLRSDDTAVYYCAARVGYDSSGWYASDVFDMWGQGTLVTVSS
chain 2: EIVLTQSPGTLSLSPGGRATLSCRASQSVSSSFLAWYQQKPGQAPRLLIYGASNRATGIADRFRGSGSGTDFTLTISRLEPEDFAVYYCHHYGDSPPNTFGQGTKLEMK
B10: BD56-212 (protein)
chain 1: EVQLVQSGAEVKKPGESLKISCKGSGYNFPNFWVGWVRQMPGKGLEWMGIIYPDDSDTRYNPSFQGHVTISADKSISTAYLQWSSLKASDTAMYYCARQGLPYCDGDCYNNWFDPWGQGTLVTVSS
chain 2: QSVLTQPPSVSGAPGQRVTISCTGGSSNIGADYDVQWYQQLPGTAPKLLIYRNNNRPSGVPDRFSGSKSGTSASLAISGLQAEDEADYYCQSYDRSLSGDVVFGGGTKLTVL
B11: BD56-264 (protein)
chain 1: QVQLVQSGAEVKKPGASVKVSCKASGYTFISYYIHWVRQAPGQGLEWMGIINPTGGSTAYGRKFQGRVTMTSDTSTSTLYMELSSLKSDDTAVYYCARDEGFIPYTNSPDYWGQGTLVTVSS
chain 2: QSALTQPASVSGSPGQSITISCTGTNSDIGIYNRVSWYQQHPGKAPKLLIYEATKRPSGASNRFSGSKSGNTASLTISGLQAEDEAHYYCCSFAGRSTWVFGGGTKLTVL
B12: BD56-224 (protein)
chain 1: QVRLVQSGAEVKKPGASVILSCKASENSLSSHYMHWVRQAPGQGLEWMGIINPSGSSTGYAQKFQGRVTMTCDTSTNTVFMELSRLRSEDTAVYYCARDGGYIPSLYGMDVWGQGTTVTVSS
chain 2: EILLTQSPATLSLSAGERVTLSCRASQSVRSYLAWYQQKPGQAPRLLIYDASKRATGVPARFSGSGSGTDFTLTISSLEPEDFAVYYCQQRTNWLHSFGQGTKLEIK

Columns and labels:
Experiment in all cases: pseudovirus neutralization IC50; higher = weaker neutralization
[1] = molecular target: SARS-CoV-2 Omicron BA.1 spike pseudovirus
Protocol: (§1)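 Single-round VSV luciferase pseudovirus mixed with antibody dilutions for 1 h and put on Huh-7 cells for about a day; IC50 from the dose curve.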

[2] = molecular target: SARS-CoV-2 Omicron BA.2 spike pseudovirus
Protocol: as §1

[3] = molecular target: SARS-CoV-2 Omicron BA.2.75 spike pseudovirus
Protocol: as §1

[4] = molecular target: SARS-CoV-2 Omicron BA.5 spike pseudovirus
Protocol: as §1

[5] = molecular target: SARS-CoV-2 Omicron BQ.1.1 spike pseudovirus
Protocol: as §1

[6] = molecular target: SARS-CoV-2 Omicron XBB spike pseudovirus
Protocol: as §1

[7] = molecular target: SARS-CoV-2 early D614G spike pseudovirus
Protocol: as §1

Binder | pseudovirus neutralization IC50 [1] [µg/mL] | pseudovirus neutralization IC50 [2] [µg/mL] | pseudovirus neutralization IC50 [3] [µg/mL] | pseudovirus neutralization IC50 [4] [µg/mL] | pseudovirus neutralization IC50 [5] [µg/mL] | pseudovirus neutralization IC50 [6] [µg/mL] | pseudovirus neutralization IC50 [7] [µg/mL]
B1 | > 10 | > 10 | > 10 | > 10 | > 10 | > 10 | 0.59
B2 | > 10 | > 10 | > 10 | > 10 | > 10 | > 10 | > 10
B3 | 0.0185 | 0.0146 | 0.019 | 0.0147 | 2.31 | 0.408 | 0.00742
B4 | 0.00107 | 0.00125 | 7.53 | 0.0282 | > 10 | 6.79 | > 10
B5 | > 10 | > 10 | > 10 | > 10 | > 10 | > 10 | > 10
B6 | 0.303 | 0.31 | 0.523 | > 10 | > 10 | > 10 | > 10
B7 | > 10 | > 10 | > 10 | > 10 | > 10 | > 10 | > 10
B8 | > 10 | > 10 | > 10 | > 10 | > 10 | > 10 | > 10
B9 | > 10 | > 10 | > 10 | > 10 | > 10 | > 10 | > 10
B10 | 5.45 | 3.78 | 2.52 | 3.89 | 2.77 | 3.25 | 1.65
B11 | > 10 | > 10 | > 10 | > 10 | > 10 | > 10 | > 10
B12 | > 10 | > 10 | > 10 | > 10 | > 10 | > 10 | > 10
